Pooled drug test results. Numbers come from NIAID ChemDB, via PubChem.

All rows: growth or infection tests; agent: HIV-1; cell line: CEM; measure: EC50

Rows are shuffled and stem from different studies.

CC(C)CN(C[C@@H](O)[C@H](Cc1ccccc1)NC(=O)OCC1CCOC1)S(=O)(=O)c1ccc(Cl)c(Cl)c1 ; strain or isolate: IIIB ; read by: p24 ; result: <1.001 µM
Cc1occc1C(=O)Nc1ccc(Cl)c(/C=N/N(C)C)c1 ; strain or isolate: HEPT-resistant (RT Y188L) ; mutations: RT-Y188L ; read by: syncytia ; result: <2 µg/mL
CC(C)OC(=O)c1cc(NC(=S)OC(C)(C)C)ccc1Cl ; mutations: RT-L100I ; read by: syncytia ; result: ≥30.32 µM
O=C1NC(=O)C(CS(=O)(=O)N(CC2CCCC2)C[C@@H](O)CN(CCc2ccccc2)C(=O)c2ccccc2)N1 ; strain or isolate: IIIB ; read by: p24 ; result: <1 µM
CC(=O)COc1cc(NC(=S)OC(C)C)ccc1Cl ; mutations: RT-E138K ; read by: syncytia ; result: 13.25 µM
CCC1=C(C(=O)OCC2CCCCC2)C(c2cc(N)ccc2F)NC(=O)N1 ; read by: p24 / ELISA ; result: ≤1 µM
CC1=C(C(=O)Nc2ccc(Cl)c(C(=O)OC(C)C)c2)SCCO1 ; strain or isolate: IIIB ; read by: syncytia ; result: 0.042 µM
CC(C)O/N=C/c1cc(NC(=S)OC(C)C)ccc1Cl ; mutations: RT-L100I ; read by: syncytia ; result: 0.6366 µM
C#CCOc1cc(NC(=S)c2ccoc2C)ccc1Cl ; mutations: RT-Y181C ; read by: syncytia ; result: 1.3 µM
CO/N=C(\C)COc1cc(NC(=S)OC(C)C)ccc1Cl ; strain or isolate: IIIB ; read by: syncytia ; result: 0.212 µM
Cc1occc1C(=S)Nc1ccc(Cl)c(/C=N/OC(C)(C)C)c1 ; strain or isolate: IIIB ; mutations: RT-E138K ; read by: syncytia ; result: 0.214 µM
CCC1=C(C(=O)c2cc(C)cc(C)c2)C(c2cccc(O)c2)NC(=O)N1 ; read by: p24 / ELISA ; result: >5 µM
COC(=O)c1cc(NC(=S)OC(C)C)ccc1Cl ; mutations: RT-Y181C ; read by: syncytia ; result: ≥34.75 µM
O=C(OC1COCOC1)N(Cc1ccccc1)CC(O)CN(CC1CCCC1)S(=O)(=O)c1ccccc1 ; strain or isolate: IIIB ; read by: p24 ; result: <1 µM
O=C(Nc1ccc(Cl)c(C(=O)OC2CCCCC2)c1)c1ccccc1F ; mutations: RT-Y181C ; read by: syncytia ; result: 13 µM
COc1ccc(C)cc1CS(=O)(=O)c1cccc[n+]1[O-] ; strain or isolate: MN ; read by: syncytia ; result: 40 µg/mL
CCC(C)OC(=O)c1cc(NC(=S)OC(C)C)ccc1Cl ; mutations: RT-L100I ; read by: syncytia ; result: 1.819 µM
Cc1ccc(C)c(CS(=O)(=O)c2cccc[n+]2[O-])c1 ; strain or isolate: IIIB ; mutations: RT-Y181C ; read by: syncytia ; result: 20 µg/mL
Cn1c(=O)sc2cc(C(=O)c3ccc(Cl)c([N+](=O)[O-])c3)ccc21 ; strain or isolate: IIIB ; read by: syncytia ; result: 4.6 µg/mL
CC(=O)Nc1ccc(S(=O)(=O)N(CC(C)C)C[C@@H](O)[C@H](Cc2ccccc2)NC(=O)O[C@@H]2CCOC2)cc1 ; strain or isolate: IIIB ; read by: p24 ; result: <0.101 µM
Cc1ccsc1C(=S)Nc1ccc(Cl)c(/C=N/OC(C)(C)C)c1 ; mutations: RT-V106A ; read by: syncytia ; result: 0.54 µM
O=C(c1ccccc1)N(CCc1ccccc1)C[C@H](O)CN(CC1CCCC1)S(=O)(=O)Cc1cncs1 ; strain or isolate: IIIB ; read by: p24 ; result: <1 µM
C/C=C/COc1cc(NC(=S)c2ccoc2C)ccc1Cl ; mutations: RT-E138K ; read by: syncytia ; result: 1.7 µM
O=C(c1ccccc1)c1ccc2c(c1)sc(=O)n2Cc1ccccc1 ; strain or isolate: IIIB ; read by: syncytia ; result: >8 µg/mL
Cc1occc1C(=S)Nc1ccc(Cl)c(/C=N/OCc2ccccc2)c1 ; strain or isolate: IIIB ; read by: syncytia ; result: 0.78 µM
CSC(=Nc1ccc(Cl)c(C(=O)OC(C)C)c1)OC(C)C ; mutations: RT-V106A ; read by: syncytia ; result: >30.13 µM
CCC1=C(C(=O)OCC2CCCCC2)C(c2cc(O)c(O)c(Br)c2)NC(=O)N1 ; read by: p24 / ELISA ; result: ≤1 µM
CC(C)=CCOc1cc(NC(=S)c2ccoc2C)ccc1Cl ; strain or isolate: IIIB ; mutations: RT-E138K ; read by: syncytia ; result: 0.015 µM
CCOC(=O)N[C@@H](Cc1ccccc1)[C@H](O)CN(CC(C)C)S(=O)(=O)c1ccc(Cl)c(Cl)c1 ; strain or isolate: IIIB ; read by: p24 ; result: <1.001 µM
CC1=C(C(=O)Nc2cccc(C(=O)OC(C)C)c2)SCCO1 ; strain or isolate: IIIB ; read by: syncytia ; result: 4 µg/mL
CCCCOC(=S)Nc1ccc(Cl)c(C(=O)OC(C)C)c1 ; mutations: RT-E138K ; read by: syncytia ; result: 7.579 µM
CC(C)OC(=O)c1cc(NC(=S)c2ccsc2)ccc1Cl ; mutations: RT-L100I ; read by: syncytia ; result: 13 µM
CC(C)CN(C[C@@H](O)[C@H](Cc1ccccc1)NC(=O)O[C@H]1CCOC1)S(=O)(=O)c1cccc2nonc12 ; strain or isolate: IIIB ; read by: p24 ; result: <1.001 µM
Cc1ccsc1C(=S)Nc1ccc(Cl)c(C(=O)OC(C)C)c1 ; mutations: RT-E138K ; read by: syncytia ; result: 1.6 µM
O=C(c1cccc(Cl)c1)c1ccc2[nH]c(=O)sc2c1 ; strain or isolate: IIIB ; read by: syncytia ; result: >1.6 µg/mL
CCOC(=O)c1cc(NC(=S)OC(C)C)ccc1SC ; mutations: RT-Y181C ; read by: syncytia ; result: 15.95 µM
CC1=C(C(=O)Nc2ccc(F)c(C(=O)OC(C)C)c2)SCCO1 ; strain or isolate: PYR-resistant (RT Y181C) ; mutations: RT-Y181C ; read by: syncytia ; result: >10 µg/mL
COc1ccc(NC(=S)OC(C)C)cc1CC(=O)OC(C)C ; mutations: RT-Y181C ; read by: syncytia ; result: 1.69 µM
CC(=O)Nc1ccc(S(=O)(=O)N(CC(C)C)C[C@@H](O)[C@H](Cc2ccccc2)NC(=O)[C@H](CC(N)=O)NC(=O)c2ccc3ccccc3n2)cc1 ; strain or isolate: IIIB ; read by: p24 ; result: <0.101 µM
CCSCC1=C(C(=O)Nc2ccc(Cl)c(C(=O)OC(C)C)c2)SCCO1 ; strain or isolate: Nevirapine-resistant (RT V106A) ; mutations: RT-V106A ; read by: syncytia ; result: 8.5 µg/mL
C=CCOC(=O)c1cc(NC(=S)OC(C)C)ccc1Cl ; strain or isolate: IIIB ; read by: syncytia ; result: 0.127 µM
O=S(=O)(Cc1ccccc1I)c1cccc[n+]1[O-] ; strain or isolate: MN ; read by: syncytia ; result: 9.4 µg/mL
Cc1occc1C(=S)Nc1ccc(Cl)c(C(=O)OC(C)C)c1 ; mutations: RT-E138K ; read by: syncytia ; result: 1.7 µM
CC1=C(C(=O)Nc2ccc(Cl)c(C(=O)OC3CCCC3)c2)SCCO1 ; strain or isolate: Nevirapine-resistant (RT V106A) ; mutations: RT-V106A ; read by: syncytia ; result: 0.7 µg/mL
Cc1occc1C(=S)Nc1ccc(Cl)c(OC(=O)OC(C)C)c1 ; mutations: RT-E138K ; read by: syncytia ; result: 1.8 µM
CSCCOC(=S)Nc1ccc(Cl)c(C(=O)OC(C)C)c1 ; mutations: RT-E138K ; read by: syncytia ; result: 14.37 µM
CC1=C(C(=O)Nc2ccc(Cl)c(C(=O)OC3CCCCC3)c2)SCCO1 ; strain or isolate: TSAO-resistant (RT E138K) ; mutations: RT-E138K ; read by: syncytia ; result: 3.5 µg/mL
CC(C)OC(=O)c1cc(NC(=S)OC(C)C)ccc1Cl ; strain or isolate: IIIB ; mutations: RT-L100I ; read by: syncytia ; result: 2.06 µM
CCC(=O)Oc1ccc(NC(=O)C2=C(C)OCCS2)cc1C(=O)OC(C)C ; strain or isolate: Nevirapine-resistant (RT V106A) ; mutations: RT-V106A ; read by: syncytia ; result: >10 µg/mL
CC(C)OC(=O)c1cc(NC(=S)c2ccco2)ccc1Cl ; mutations: RT-V106A ; read by: syncytia ; result: 21 µM
Cc1ccccc1OC(=O)c1cc(NC(=S)OC(C)C)ccc1Cl ; strain or isolate: IIIB ; read by: syncytia ; result: 1.099 µM
Cc1nc2cccc(CS(=O)(=O)N(CC3CCCC3)C[C@@H](O)CN(CCc3ccccc3)C(=O)c3ccccc3)c2o1 ; strain or isolate: IIIB ; read by: p24 ; result: <1 µM
CC1=C(C(=S)Nc2ccc(Cl)c(C=NOC(C)(C)C)c2)CCCO1 ; strain or isolate: IIIB ; read by: syncytia ; result: 0.0035 µM
CC(C)[Si](OCCC1=C(C(=O)OCC2CCCCC2)C(c2cccc(O)c2)NC(=O)N1)(C(C)C)C(C)C ; read by: p24 / ELISA ; result: >5 µM
CC1(C)CC(=O)C(S(=O)(=O)N(CC2CCCC2)C[C@@H](O)CN(CCc2ccccc2)C(=O)c2ccccc2)C(=O)S1 ; strain or isolate: IIIB ; read by: p24 ; result: <1 µM
CCCCOC(=O)c1cc(NC(=S)OC(C)C)ccc1Cl ; mutations: RT-V106A ; read by: syncytia ; result: 2.22 µM
O=c1[nH]c2ccc(Cc3ccc(F)cc3)cc2o1 ; strain or isolate: IIIB ; read by: syncytia ; result: >8 µg/mL
Cc1sccc1C(=S)Nc1ccc(Cl)c(C(=O)OC2CCCCC2)c1 ; mutations: RT-L100I ; read by: syncytia ; result: 0.085 µM
CCCCC(=O)c1ccc2c(c1)oc(=O)n2CCN1CCCCC1 ; strain or isolate: IIIB ; read by: syncytia ; result: >8 µg/mL
Cc1ccccc1C(=S)Nc1ccc(Cl)c(C(=O)OC(C)C)c1 ; strain or isolate: IIIB ; read by: syncytia ; result: 0.513 µM
CC1=C(C(=O)Nc2ccc(C)c(C(=O)OC(C)C)c2)SCCO1 ; strain or isolate: PYR-resistant (RT Y181C) ; mutations: RT-Y181C ; read by: syncytia ; result: 6 µg/mL
CC(C)OC(=O)c1cc(NC(=S)c2cccs2)ccc1Cl ; mutations: RT-E138K ; read by: syncytia ; result: 0.84 µM
CCCNc1cccc(C2NC(=O)NC(CC)=C2C(=O)OCC2CCCCC2)c1 ; read by: p24 / ELISA ; result: ≤1 µM
COc1ccccc1C(=S)Nc1ccc(Cl)c(C(=O)OC2CCCC2)c1 ; mutations: RT-E138K ; read by: syncytia ; result: 1.5 µM
O=C(c1cccc(Cl)c1)c1ccc2c(c1)sc(=O)n2Cc1ccccc1 ; strain or isolate: IIIB ; read by: syncytia ; result: >1.6 µg/mL
CCC1=C(C(=O)CCC2CCCCCC2)[C@H](c2ccc(O)c(Cl)c2)NC(=O)N1 ; read by: p24 / ELISA ; result: ≤1 µM
Cc1occc1C(=O)Nc1ccc(Cl)c(C(=O)OC(C)C2CC2)c1 ; mutations: RT-L100I ; read by: syncytia ; result: 29 µM
CC(C)OC(=O)Oc1cc(NC(=S)OC(C)C)ccc1Cl ; mutations: RT-L100I ; read by: syncytia ; result: 21.1 µM
C=CCOC(=O)N(CCc1ccccc1)C[C@H](O)CN(CC1CCCC1)S(=O)(=O)c1ccc(OC)cc1 ; strain or isolate: IIIB ; read by: p24 ; result: <0.1 µM
CCCOC(=S)Nc1ccc(Cl)c(C(=O)OC(C)C)c1 ; mutations: RT-V106A ; read by: syncytia ; result: 17.41 µM
CC[C@H](C)[C@H](NC(=O)c1cnc2ccccc2n1)C(=O)N[C@@H](Cc1ccccc1)[C@H](O)CN(CC(C)C)S(=O)(=O)c1ccc(F)c(NC(C)=O)c1 ; strain or isolate: IIIB ; read by: p24 ; result: <1.001 µM
CC(C)OC(=S)Nc1ccc(Cl)c(C(=O)OC2(C)COC2)c1 ; mutations: RT-E138K ; read by: syncytia ; result: 2.036 µM
CCC1=C(C(=O)OCC2CCCCC2)C(c2cc([N+](=O)[O-])ccc2Cl)NC(=O)N1 ; read by: p24 / ELISA ; result: >5 µM
CCOC(=O)c1cc(NC(=S)OC(C)C)ccc1C ; mutations: RT-E138K ; read by: syncytia ; result: 14.2 µM
Cn1cccc1C(=S)Nc1ccc(Cl)c(/C=N/OC(C)(C)C)c1 ; strain or isolate: IIIB ; read by: syncytia ; result: 0.081 µM

For reference, 11 entries again:

compound,strain or isolate,mutations,read by,result
CCCCOC(=S)Nc1ccc(Cl)c(C(=O)OC(C)C)c1,-,RT-E138K,syncytia,7.579 µM
CCC1=C(C(=O)c2cc(C)cc(C)c2)C(c2cccc(O)c2)NC(=O)N1,-,-,p24 / ELISA,>5 µM
CC(C)OC(=O)c1cc(NC(=S)OC(C)(C)C)ccc1Cl,-,RT-L100I,syncytia,≥30.32 µM
CC(=O)Nc1ccc(S(=O)(=O)N(CC(C)C)C[C@@H](O)[C@H](Cc2ccccc2)NC(=O)[C@H](CC(N)=O)NC(=O)c2ccc3ccccc3n2)cc1,IIIB,-,p24,<0.101 µM
CC(C)OC(=O)c1cc(NC(=S)c2ccsc2)ccc1Cl,-,RT-L100I,syncytia,13 µM
CC(C)[Si](OCCC1=C(C(=O)OCC2CCCCC2)C(c2cccc(O)c2)NC(=O)N1)(C(C)C)C(C)C,-,-,p24 / ELISA,>5 µM
Cc1ccsc1C(=S)Nc1ccc(Cl)c(/C=N/OC(C)(C)C)c1,-,RT-V106A,syncytia,0.54 µM
O=S(=O)(Cc1ccccc1I)c1cccc[n+]1[O-],MN,-,syncytia,9.4 µg/mL
Cc1ccsc1C(=S)Nc1ccc(Cl)c(C(=O)OC(C)C)c1,-,RT-E138K,syncytia,1.6 µM
O=C(OC1COCOC1)N(Cc1ccccc1)CC(O)CN(CC1CCCC1)S(=O)(=O)c1ccccc1,IIIB,-,p24,<1 µM
CC1=C(C(=O)Nc2ccc(C)c(C(=O)OC(C)C)c2)SCCO1,PYR-resistant (RT Y181C),RT-Y181C,syncytia,6 µg/mL

ECn is the concentration giving n% inhibition of infection, replication or growth. Blank or dashed fields: not listed here.